Data as given in PubChem BioAssay AID1224833 (University of Georgia, 2016)

- Purpose: 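Human genes whose knock-down alters rotavirus replication in monkey cells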 (primary screen)
- Cell system: monkey MA104 kidney cells
- Reagent: siRNA pool against human genes, 50 nM
- Time to read-out: 48 h knock-down before infection; read 24 h after infection
- Treatment: infection with rotavirus strain RV3 two days after transfection; infectious dose for this stage not given
- Read-out: 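Rotavirus antigen per well by fluorescent immunoassay, normalised to non-targeting control wells on each plate and given as a standard z-score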
- Direction: z-score vs non-targeting control: higher = more rotavirus replication than with non-targeting control
- Hit rule: In these data the active calls have z-score vs non-targeting control at about -1 or lower, or at about 1 or higher
- Meaning of the calls: active = z-score beyond 1 either way; inactive = z-score within 1 of zero
This is one part, drawn at random, of about 12,000 reagents tested. Of all reagents, about 5,600 (46%) got an active call. 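Active calls cover z-scores past 1 in both directions, so they include lowered as well as raised rotavirus replication.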 A number with no mark means an inactive call.

| target gene | PubChem SID | z-score vs non-targeting control |
| --- | --- | --- |
| SRSF1 | SID329575302 | -0.0688 |
| SFXN2 | SID329582378 | -0.949 |
| AMPD3 | SID329572757 | 0.581 |
| SMPD3 | SID329579736 | -0.634 |
| PI16 | SID329583593 | 0.181 |
| COL9A3 | SID329573213 | -0.315 |
| PLD6 | SID329583423 | -1.05 (active) |
| NAA15 | SID329581160 | 1.44 (active) |
| PIGC | SID329574831 | -0.705 |
| KRTAP19-3 | SID329584013 | -1.56 (active) |
| UTP3 | SID329580144 | -1.27 (active) |
| TOP3B | SID329576361 | -1.76 (active) |
| NAA30 | SID329582452 | 1.2 (active) |
| SAP30L | SID329580956 | -0.689 |
| CCDC85A | SID329582229 | 0.78 |
| SLC41A2 | SID329581519 | 1.78 (active) |
| SLC7A1 | SID329575360 | -2.35 (active) |
| TIGD1 | SID329583415 | -2.71 (active) |
| FAM194C | SID329581513 | -1.52 (active) |
| BSDC1 | SID329579570 | 1.01 (active) |
| AMBN | SID329572753 | 2.14 (active) |
| ARF1 | SID329572804 | 0.871 |
| KCTD1 | SID329583874 | -1.32 (active) |
| ABHD17B | SID329578910 | -2.13 (active) |
| ORC2 | SID329574714 | -0.806 |
| FSIP1 | SID329583210 | -0.806 |
| KIAA1958 | SID329583152 | 0.771 |
| ARHGAP29 | SID329576583 | -1.27 (active) |
| RGS17 | SID329578413 | -1.01 (active) |
| PLEKHG1 | SID329580251 | 0.84 |
| ROGDI | SID329580931 | -0.377 |
| AMY2A | SID329572764 | -1.63 (active) |
| PITPNM1 | SID329576682 | -1.4 (active) |
| NOL8 | SID329579533 | 1.06 (active) |
| EMC1 | SID329577790 | 2.14 (active) |
| CCT2 | SID329577251 | -2.19 (active) |
| CYSTM1 | SID329581617 | 1.24 (active) |
| CADM1 | SID329578118 | 2.11 (active) |
| ATP13A5 | SID329584137 | -2.83 (active) |
| DRG2 | SID329573448 | -0.948 |
| OR6C2 | SID329584095 | -0.577 |
| MRPL28 | SID329577249 | -1.09 (active) |
| NKAIN3 | SID329583969 | -1.24 (active) |
| PABPN1 | SID329576008 | 0.266 |
| SRI | SID329575480 | -0.521 |
| TAFA5 | SID329578177 | -0.801 |
| ZFAND3 | SID329580495 | -0.905 |
| FAM89A | SID329584247 | 0.61 |
| STOML3 | SID329583191 | 0.0568 |
| ZNF614 | SID329581140 | 0.928 |
| CPEB1 | SID329580645 | -1.77 (active) |
| GLP1R | SID329573780 | 0.508 |
| VCAM1 | SID329575786 | -0.0201 |
| WNT3A | SID329581888 | -0.605 |
| RABL2A | SID329577572 | -0.642 |
| PLA2G4D | SID329583852 | 0.691 |
| ZNF384 | SID329583332 | 1.2 (active) |
| WNT10B | SID329575819 | -0.896 |
| LLGL2 | SID329574307 | 1.31 (active) |
| EGR3 | SID329573502 | 1.05 (active) |
| GHR | SID329573761 | 0.563 |
| CCNE2 | SID329576441 | -2.47 (active) |
| WDR25 | SID329580888 | 1.53 (active) |
| PAGE2 | SID329583471 | 1.59 (active) |
| PANX2 | SID329580044 | -0.734 |
| ZC3H3 | SID329577830 | 0.612 |
| VAMP4 | SID329576230 | 0.321 |
| TAF4 | SID329575550 | 0.517 |
| TCF21 | SID329575591 | -2.27 (active) |
| TAF7 | SID329575553 | -1.65 (active) |
| TJP1 | SID329575649 | -1.77 (active) |
| ZNF383 | SID329583233 | -0.823 |
| SPRING1 | SID329581010 | -0.587 |
| REPS1 | SID329581819 | -1.26 (active) |
| NMNAT1 | SID329580691 | 1.62 (active) |
| OR2T2 | SID329584506 | -0.347 |
| DCST2 | SID329582578 | 0.536 |
| POLR1A | SID329578205 | -1.24 (active) |
| TAF1C | SID329576376 | -0.724 |
| CC2D1B | SID329583395 | 0.545 |
| FAM47E | SID329584754 | -2.08 (active) |
| ACSL5 | SID329579182 | -1.37 (active) |
| PUS1 | SID329581214 | -0.724 |
| USP35 | SID329580288 | -1.12 (active) |
| FAM81A | SID329582896 | -1.48 (active) |
| INHBA | SID329574169 | 0.862 |
| MAFF | SID329578130 | -0.746 |
| OSBPL8 | SID329582238 | -1.38 (active) |
| PCDHA7 | SID329579990 | -0.0643 |
| VWA2 | SID329584085 | 0.441 |
| SLC35H1 | SID329578849 | 0.0818 |
| MLLT1 | SID329574454 | 0.651 |
| TMEM175 | SID329581578 | 0.463 |
| CDC20 | SID329573100 | 0.32 |
| RARG | SID329575074 | -0.587 |
| C3orf52 | SID329580946 | 2.63 (active) |
| NOL4L | SID329582805 | -0.247 |
| ADCY10 | SID329579882 | -0.652 |
| NCKIPSD | SID329579101 | 0.0263 |
| TGIF2 | SID329580467 | 1.19 (active) |
| WFDC10B | SID329583798 | 0.159 |
| RMDN2 | SID329583043 | -1.02 (active) |
| ATF6 | SID329577730 | 0.675 |
| GPAT2 | SID329583027 | -1.82 (active) |
| DMRTC1 | SID329580530 | 0.333 |
| CTRL | SID329573316 | 1.76 (active) |
| CLASRP | SID329577550 | -0.63 |
| ZNF200 | SID329575920 | -1.31 (active) |
| TVP23B | SID329578869 | -0.599 |
| TMEM89 | SID329584586 | -4.88 (active) |
| APH1A | SID329578911 | -0.463 |
| SLC67A1-AS | SID329574718 | 1.34 (active) |
| SLC12A2 | SID329575368 | 1.58 (active) |
| ASCL2 | SID329572835 | -0.162 |
| TRAF2 | SID329575715 | 0.834 |
| HAMP | SID329580386 | 0.795 |
| KHDRBS2 | SID329583449 | -0.03 |
| JAG1 | SID329572726 | 1.26 (active) |
| METAP2 | SID329577469 | 0.622 |
| TAF4B | SID329575551 | 0.973 |
| PRAMEF2 | SID329580754 | 1.84 (active) |
| WARS1 | SID329575803 | -0.784 |
| DEFB114 | SID329583649 | -0.283 |
| SRRM4 | SID329581649 | 0.535 |
| HIVEP2 | SID329573961 | -1.42 (active) |
| OR4K5 | SID329580872 | -0.587 |
| ZBTB22 | SID329576515 | -0.0595 |
| C1orf115 | SID329580994 | -1.83 (active) |
| DEFB107A | SID329583646 | -0.188 |
| NTAQ1 | SID329579563 | 0.541 |
| PTGR2 | SID329582889 | -1.47 (active) |
| HNRNPA3 | SID329583562 | 0.828 |
| TBPL1 | SID329576636 | -0.573 |
| ITGA3 | SID329574187 | -0.911 |
| ZNF2 | SID329575849 | -1.24 (active) |
| RPL7A | SID329575155 | -0.926 |
| MTERF4 | SID329582670 | 2.25 (active) |
| SF3A2 | SID329576019 | -0.601 |
| BSG | SID329572943 | -2.72 (active) |
| KLRK1 | SID329577721 | -0.0181 |

A few values from above.
OR2T2 [SID329584506], z-score vs non-targeting control → -0.347
TAF4B [SID329575551], z-score vs non-targeting control = 0.973
Entry for TAFA5 [SID329578177] in “z-score vs non-targeting control”: -0.801
BSG [SID329572943], z-score vs non-targeting control → -2.72 (active)
Under “z-score vs non-targeting control”, ATF6 [SID329577730] is entered as 0.675
Under “z-score vs non-targeting control”, SAP30L [SID329580956] reads -0.689
